Compound potency records, mixed from different reports. Data source: NIAID ChemDB in PubChem.

Shared fields: tests in culture; species: Hepatitis B virus; cell line: HepG2.2.15; read-out: EC50

Lines come from different laboratories, so protocols vary. ECn: concentration that inhibits the pathogen or its effect by n%. An empty or dashed field is not shown. a–b is a range or a potency band.

smiles,read by,value
COc1ccc(CNC(=O)c2c3n(c(=O)n2Cc2ccccc2)CCN(C(=O)c2ccc(Br)c(Cl)c2)C3)cc1,PCR,>5 µM
CCOC(=O)C1=C(CN2CC(F)(F)[C@@H]3[C@H]2CON3C[C@@H](OC)C(C)(C)C(=O)O)NC(c2nccs2)=N[C@H]1c1cccc(F)c1Cl,PCR,0.001 µM
C[C@@H]1c2[nH]nc(-c3ncccn3)c2CN(C(=O)Nc2ccnc(Br)c2F)[C@H]1C,PCR,0.028 µM
CN(C)C(=O)NCC(=O)Nc1ccc(Cl)nc1Cl,PCR,>100 µM
COC(=O)C1=C(CN2[C@@H]3CC[C@@H]2COC3)NC(c2ncc(F)cc2F)=N[C@H]1c1ccc(F)cc1Cl,,0.015 µM
C[C@H]1OC(=O)[C@@H](O)CC2[C@]3(C)CC[C@@]4(CC(=O)O)C5CC(C)(C)CC[C@]5(C)CC[C@]4(C)C3CC[C@@]21C,ELISA / antigen,8 µM
COC(=O)C1=C(c2cccnc2)NC(c2ccccn2)=NC1c1ccccc1Cl,,15 µM
CN(CC(=O)Nc1ccc(Cl)cc1Cl)C(=O)c1ccc(F)cc1,PCR,32 µM
CC(=O)C1=C(C)NC(c2ccccn2)=NC1c1ccccc1Cl,,15 µM
C=C(C)[C@@H]1CC[C@]2(C(=O)OC)CC[C@]3(COC(=O)c4ccccc4)C(CCC4[C@@]5(C)CC[C@H](OC(C)=O)CC5C(C)(C)C[C@]43C)C12,ELISA,10.4 µM
C[C@H]1c2[nH]nc(-c3ncccn3)c2CN(C(=O)Nc2ccc(F)c(C#N)c2)[C@H]1C,PCR,0.028 µM
N#CC[C@@]1(O)CCC(F)(F)c2c3c(nn2C1)CCN(C(=O)NC1=CC=NC(C(F)F)C1F)C3,fluorescence,0.333 µM
CCOC(=O)C1=C(CN2CC(F)(F)[C@H]3[C@@H]2CCN3C[C@@H](F)C(C)(C)C(=O)O)NC(c2nc(C)cs2)=N[C@H]1c1cccc(F)c1Cl,PCR,0.001 µM
COc1ccc(C(=O)N(C)CC(=O)Nc2ccc(Cl)cc2Cl)cc1,PCR,4.9 µM
CCOC(=O)C1=C(C)NC(c2ncc(F)cc2F)=NC1c1ccc(F)cc1Cl,,0.05 µM
CC(C)[C@@H](C)/C=C/[C@@H](C)[C@H]1CCC2C3=C[C@@H](O)[C@@]4(O)C[C@@H](O)CC[C@]4(C)C3CC[C@@]21C,ELISA / antigen,35 µM
COCCC1=C(C(=O)OC)[C@H](c2ccc(F)cc2Cl)N=C(c2ncc(F)cc2F)N1,,0.06 µM
COC(=O)C1=C(C)NC(c2ccccn2)=N[C@H]1c1ccc(F)cc1Cl,,0.4 µM
C/C=C(/C)C(=O)O[C@@H]1c2cc(OC)c(OC)c(OC)c2-c2c(cc3c(c2OC)OCO3)C[C@H](C)[C@@]1(C)O,ELISA / antigen,65.73 µg/mL
C[C@H]1Cn2c(c(C(=O)NCc3ccccc3-c3ncccn3)n(-c3ccc(-n4cccn4)cc3)c2=O)CN1C(=O)c1ccc(Br)c(Cl)c1,PCR,<0.1 µM
CCOCC1=C(C(=O)OC)[C@H](c2ccc(F)cc2Cl)N=C(c2ncc(F)cc2F)N1,,0.06 µM
C[C@@]12C(=O)N(CCc3ccc(O)cc3)C(=O)[C@]1(C)C1CCC2O1,PCR,0.066 µM
N#CCCC1C(=O)c2ccc(-c3ccccc3)cc2OC12CCCCC2,,0.3 µM
CCC(O)CC1=C(C(=O)OC)C(c2ccc(F)cc2Cl)N=C(c2ncc(F)cc2F)N1,,0.3 µM
COC(=O)[C@]12C3=C([C@H](C)O[C@H]1[C@@H]1C4=C(C(=O)OCC4=C[C@@]45C6=C(C(=O)OCC6)[C@@H](C[C@@H]14)OC5C)[C@H]2O)[C@@H](O)OCC3,PCR,1.53 µM
C[C@H](Cn1cnc2c(N)ncnc21)OCP(=O)(O)O,ELISA / antigen,19.19 µg/mL
C[C@]1(CO)O[C@@H](n2ccc(=O)[nH]c2=O)[C@H](O)[C@@H]1O,,>10 µM
C[C@@H]1c2[nH]nc(-c3ncccn3)c2CN(C(=O)Nc2ccnc(Br)c2F)[C@@H]1C,PCR,0.51 µM
C[C@@H]1CS(=O)(=O)[C@@H](c2cccs2)CN1C(=O)Nc1ccc(F)c(Cl)c1,PCR,>5 µM
O=C(CNC(=O)c1ccccn1)Nc1ccc(Cl)nc1Cl,PCR,4 µM
COC(=O)C1=C(CN2CCN(c3ncc(F)cn3)CC2)NC(c2ncc(F)cc2F)=N[C@H]1c1ccc(F)cc1Cl,,0.031 µM
C[C@@]12C(=O)N(CCO)C(=O)[C@]1(C)C1CCC2O1,PCR,0.0192 µM
C[C@H](Cn1cnc2c(N)ncnc21)OCP(=O)(O)O,ELISA / antigen,>1740 µM
Cc1cc(NC(=O)c2c(C)noc2C)ccc1F,,0.2 µM
O=C(Nc1ccc(F)c(Cl)c1)N1CCS(=O)(=O)[C@@H](c2cccs2)C1,PCR,0.1–0.5 µM
CC[C@]12CCC(C)(C)CC1[C@]1(CC(=O)O)CC[C@@]3(C)C4C[C@H](O)C(=O)O[C@H](C)[C@@]4(C)CCC3[C@@]1(C)CC2,ELISA / antigen,33.7 µM
C#CC1(NC(=O)C(=O)c2c(C)c(C(=O)Nc3ccc(F)c(F)c3)n(C)c2C)COC1,PCR,0.001–0.0099 µM
COc1ccc(CNC(=O)c2c3n(c(=O)n2-c2ccccc2)CCN(C(=O)c2ccc(Br)c(Cl)c2)C3)cc1,PCR,0.5–5 µM
COC(=O)C1=C(CN2CCOC3CN(C(=O)OC(C)(C)C)CC32)NC(c2ncc(F)cc2F)=N[C@H]1c1ccc(F)cc1Cl,,0.03 µM
OC[C@H]1OC2OC[C@H](c3ccc(O)c(O)c3)OC2[C@@H](O[C@@H]2OC[C@](O)(CO)[C@H]2O)[C@@H]1O,ELISA / antigen,930 µM
O=C(c1ccc(Cl)cc1Cl)N1CCS(=O)(=O)[C@H](c2cccs2)C1,PCR,0.5–5 µM
Cc1cccc(NC(=O)c2c(C)noc2C)c1,,2 µM
C=CC1(NC(=O)C(=O)c2c(C)c(C(=O)Nc3ccc(F)c(C#N)c3)n(C)c2C)CC(F)(F)C1,PCR,0.001–0.0099 µM
OC[C@H]1O[C@@H](OCCc2ccc(O)c(O)c2)[C@H](O)[C@@H](O[C@@H]2OC[C@](O)(CO)[C@H]2O)[C@@H]1O,ELISA / antigen,260 µM
COC(=O)C1=C(C)NC(c2ncccc2C)=N[C@H]1c1ccc(F)cc1Cl,,0.8 µM
Nc1ccn([C@@H]2CS[C@H](CO)O2)c(=O)n1,,50 µM
CC1(CO)O[C@H](n2cnc3c(N)ncnc32)[C@@H](O)[C@H]1O,,>10 µM
CCOC(=O)C1=C(CN2CC(F)(F)[C@@H]3[C@H]2CON3C[C@@H](O)C(C)(C)C(=O)O)NC(c2nccs2)=N[C@H]1c1cccc(F)c1C,PCR,0.034 µM
C=C(C)[C@H](CC)CC[C@@H](C)C1CCC2C3CC=C4C[C@@H](OC5OC(CO)C(O)C(O)C5O)CC[C@]4(C)C3CC[C@@]21C,ELISA / antigen,51 µM
CC1O[C@@H]2C[C@H]3[C@H]4C5=C(C(=O)OCC5=C[C@]13C1=C2C(=O)OCC1)[C@@H](O)[C@]12C(=O)OCCC1=C(C=O)[C@@H](C)O[C@H]42,ELISA / antigen,500 µM
C#CC1(NC(=O)C(=O)c2c(C)c(C(=O)Nc3ccc(F)c(C#N)c3)n(C)c2C)CCC1,PCR,<0.001 µM
N#CC[C@@]1(O)CCC(F)(F)c2c3c(nn2C1)CCN(C(=O)Nc1ccc(F)c(C#N)c1)C3,fluorescence,0.009 µM
COc1ccc(CN2CCn3c(c4n(c3=O)CCN(C(=O)c3ccc(Br)c(F)c3)C4)C2=O)cc1,PCR,>5 µM
Cn1cnc(-c2ccc([C@@H]3CN(C(=O)c4ccc(Br)c(Cl)c4)CCS3(=O)=O)s2)c1,PCR,0.1–0.5 µM
CCOC(=O)C1=C(CN2CC(F)(F)[C@H]3[C@@H]2CCN3CC[C@@](C)(O)C(=O)O)NC(c2nccs2)=N[C@H]1c1cccc(F)c1C,PCR,0.056 µM
CC(C)=CCC[C@]1(C)CC[C@]2(C)[C@H]3CC[C@@]4(C)[C@@H](CC[C@H](O)[C@@H]4C)[C@]3(C)CC[C@@]2(C)C1,,30.7 µM
C[C@@H]1Cn2c(c(C(=O)NCc3ccccc3-c3ncccn3)n(-c3ccc(-n4cccn4)cc3)c2=O)CN1C(=O)c1ccc(Br)c(C#N)c1,PCR,0.1–0.5 µM
C#CC1(NC(=O)C(=O)c2c(C)c(C(=O)Nc3ccc(F)c(C(F)F)c3)n(C)c2C)CC(F)(F)C1,PCR,0.001–0.0099 µM
Nc1ncc(Br)c2c1ncn2[C@@H]1C[C@H](O)[C@@H](O)[C@H]1O,,0.022 µM
COC(=O)C1=C(COCCN=[N+]=[N-])NC(c2ccccn2)=NC1c1ccccc1Cl,,25 µM
COC(=O)C1=C(CN2CCNC(=O)C2)NC(c2ncc(F)cc2F)=N[C@H]1c1ccc(F)cc1Cl,,0.04 µM
C=C(C)[C@H](CC)CC[C@@H](C)[C@H]1CCC2C3C(CC[C@@]21C)[C@@]1(C)CC[C@H](O)CC1=C[C@H]3O,ELISA / antigen,62 µM
O=C(c1cccc(Cl)c1F)N1CCS(=O)(=O)[C@@H](c2cccs2)C1,PCR,>5 µM
O=C(Nc1ccc(F)c(C(F)(F)F)n1)N1CCc2nn3c(c2C1)C(F)(F)CC[C@H](O)C3,fluorescence,0.037 µM
O=C(c1ccc(Cl)c(Cl)c1)N1CCS(=O)(=O)[C@@H](c2cccs2)C1,PCR,0.5–5 µM
[N-]=[N+]=N[C@]1(CO)O[C@@H](n2ccc(NO)nc2=O)[C@@H](F)[C@@H]1O,ELISA / antigen,>1 µM